Anti-infective test results gathered from many reports (values: NIAID ChemDB through PubChem).

All rows: target-level tests

Blank or dashed fields: not listed here. Inhibition is in % at the dose shown (toxicity tests: loss of growth or viability). ICn: concentration for n% inhibition. Rows are shuffled and stem from different studies.

compound,measure,strain,agent,protein,dose,result
CCCCCCCCCCCCCCCCCC(=O)OC[C@@H](COP(=O)(O)OCCNCCO[C@@]1(C(=O)O)O[C@@H]([C@H](O)[C@H](O)CO)[C@H](NC(C)=O)[C@@H](O)[C@H]1F)OC(=O)CCCCCCCCCCCCCCCCC,IC50,H10N1 A/DUCK/HK/33/76,Influenza A virus,Sialidase,-,250 µM
CCCCCCCCCCCCC/C=C/[C@@H](O)[C@H](CO[C@@H]1O[C@H](CO)[C@H](O)[C@H](OS(=O)(=O)O)[C@H]1O)NC(=O)CCCCCCCCCCCCCCCCCCCCCCC,inhibition,H1N1 A/duck/Alberta/35/76,Influenza A virus,Sialidase,200 µM,65.6%
CCCCCCCCCCCCCCCCCC(=O)OC[C@@H](COP(=O)(O)OCCNCCO[C@@]1(C(=O)O)O[C@@H]([C@H](O)[C@H](O)CO)[C@H](NC(C)=O)[C@@H](O)[C@H]1F)OC(=O)CCCCCCCCCCCCCCCCC,IC50,H2N2 A/DUCK/273/8/78,Influenza A virus,Sialidase,-,150 µM
CCN(C(=O)N1C[C@@H](N)[C@@H](C(=O)O)C1)C(C)C,Ki,A/TOKYO/67,Influenza A virus,Neuraminidase,-,1.1 µM
Nc1nc(=O)c2ncn(CCOCP(=O)(O)O)c2c(=O)[nH]1,IC50,-,Japanese encephalitis virus,NTPase/helicase,-,>500 µM
O=C(O)COc1ccc(C[C@H](NC(=O)c2ccc3c(c2)nc(-c2ccoc2)n3C2CCCCC2)C(=O)O)cc1,IC50,POLIO VIRUS,Poliovirus,RNA-dependent RNA polymerase,-,100 µM
CCC(C)c1nc2cc(C(=O)NC(C(=O)O)c3ccc(OC)c(OC)c3)ccc2n1C1CCCCC1,IC50,-,Poliovirus,RNA-dependent RNA polymerase,-,>25 µM
CC(C)(C)c1cc(Cl)c(O)c(C(N)C(=O)O)c1,Ki,TOKYO/3/67,Influenza A virus,Neuraminidase,-,41 µM
O=C(N[C@@H](Cc1c[nH]c2ccc(O)cc12)C(=O)NCC(O)CO)c1ccc2c(c1)nc(-c1ccoc1)n2C1CCCCC1,IC50,-,Poliovirus,RNA-dependent RNA polymerase,-,>25 µM
O=C(O)COc1ccc2[nH]c(C[C@H](NC(=O)c3ccc4c(c3)nc(-c3ccoc3)n4C3CCCCC3)C(=O)O)cc2c1,IC50,POLIO VIRUS,Poliovirus,RNA-dependent RNA polymerase,-,>100 µM
O=C(N[C@H](C(=O)O)c1c[nH]c2ccc(O)cc12)c1ccc2c(c1)nc(-c1ccc(S(=O)(=O)O)o1)n2C1CCCCC1,IC50,-,Poliovirus,RNA-dependent RNA polymerase,-,>25 µM
CNC(=O)N1CC(C(=O)O)C(N)C1CNC(C)=O,IC50,A/TOKYO/67,Influenza A virus,Neuraminidase,-,470 µM
O=C(O)CCC(=O)NC1CCCC(NC(=O)c2ccc3c(c2)nc(-c2ccoc2)n3C2CCCCC2)C1,IC50,-,Poliovirus,RNA-dependent RNA polymerase,-,>25 µM
CCN(C(=O)C1CC(C(=O)O)C(N)C1CNC(C)=O)C(C)C,Ki,A/TOKYO/67,Influenza A virus,Neuraminidase,-,24 µM
C=C(CC(=O)NC1CCC(NC(=O)c2ccc3c(c2)nc(-c2ccoc2)n3C2CCCCC2)CC1)C(=O)O,IC50,-,Poliovirus,RNA-dependent RNA polymerase,-,>25 µM
CC(C)(C)OC(=O)N1CC(N)C(C(=O)O)C1,IC50,A/TOKYO/67,Influenza A virus,Neuraminidase,-,58 µM
O=C(N[C@@H](Cc1c[nH]c2ccc(O)cc12)C(=O)NCCN1CCCC1)c1ccc2c(c1)nc(-c1ccoc1)n2C1CCCCC1,IC50,-,Poliovirus,RNA-dependent RNA polymerase,-,>25 µM
CC(=O)NCC1C(N)C(C(=O)O)CN1C(=O)N(C)C,IC50,A/TOKYO/67,Influenza A virus,Neuraminidase,-,260 µM
COc1ccc([C@@H](NC(=O)c2ccc3c(c2)nc(-c2ccccn2)n3C2CCCCC2)C(=O)O)cc1,IC50,-,Poliovirus,RNA-dependent RNA polymerase,-,>25 µM
CCN(C(=O)N1C[C@H](N)[C@](O)(C(=O)O)C1)C(C)C,Ki,TOKYO/3/67,Influenza A virus,Neuraminidase,-,0.36 µM
CC(C)N(C)C(=O)N1C[C@@H](N)[C@@H](C(=O)O)C1,IC50,A/TOKYO,Influenza A virus,Neuraminidase,-,>50 µM
O=C(N[C@@H](Cc1ccc(O)cc1)C(=O)O)c1ccc2c(c1)nc(-c1ccoc1)n2C1CCCCC1,IC50,POLIO VIRUS,Poliovirus,RNA-dependent RNA polymerase,-,79 µM
Cc1cc(-c2nc3cc(C(=O)N[C@H](C(=O)O)c4c[nH]c5ccc(O)cc45)ccc3n2C2CCCCC2)nn1C,IC50,-,Poliovirus,RNA-dependent RNA polymerase,-,>25 µM
CC(C)CN(CC(C)C)C(=O)N1C[C@@H](N)[C@@H](C(=O)O)C1,IC50,A/TOKYO,Influenza A virus,Neuraminidase,-,>50 µM
CCN(C(=O)N1C[C@@H](C(=O)O)[C@@H](N)[C@@H]1CNC(C)=O)C(C)C,Ki,A/TOKYO/67,Influenza A virus,Neuraminidase,-,6.3 µM

The last 3 rows once more:

compound | measure | strain | agent | protein | dose | result
Cc1cc(-c2nc3cc(C(=O)N[C@H](C(=O)O)c4c[nH]c5ccc(O)cc45)ccc3n2C2CCCCC2)nn1C | IC50 | - | Poliovirus | RNA-dependent RNA polymerase | - | >25 µM
CC(C)CN(CC(C)C)C(=O)N1C[C@@H](N)[C@@H](C(=O)O)C1 | IC50 | A/TOKYO | Influenza A virus | Neuraminidase | - | >50 µM
CCN(C(=O)N1C[C@@H](C(=O)O)[C@@H](N)[C@@H]1CNC(C)=O)C(C)C | Ki | A/TOKYO/67 | Influenza A virus | Neuraminidase | - | 6.3 µM